Measured values from several laboratories, pooled; numbers as filed in NIAID ChemDB.

All rows: toxicity to cultured cells; cells: MT-4; endpoint: CC50

An empty or dashed field is not shown.

| smiles | method | value |
|---|---|---|
| CC1=C[C@@H](OCP(=O)(O)O)C[C@H]1n1cnc2c(N)ncnc21 | XTT | 90 µM |
| COc1ccc(C(C)c2c(C)c(=O)[nH]c(=O)n2COCc2ccccc2)cc1OC | MTT | >186 µM |
| O=C(/C=C/c1ccc(/C=C/C(=O)Nc2ccc(C3=NCCN3)cc2)cc1)Nc1ccc(C2=NCCN2)cc1 | propidium iodide | >10 µM |
| CCCCCCCC/C=C\CCCCCCCC(=O)OCC(COC(=O)CCCCCCC/C=C\CCCCCCCC)OC(=O)CCC(=O)O[C@@H]1Cc2ccccc2[C@@H]1NC(=O)[C@H](Cc1ccccc1)C[C@H](O)CN1CCN(Cc2cccnc2)C[C@H]1C(=O)NC(C)(C)C | MTT | >100 µM |
| CC(C)(C)OC(C(=O)O)c1c(-c2ccc3c(c2)CCCO3)ccc2ncccc12 | ATP | >50 µM |
| Brc1ccc(-c2nc(-c3nnc(C45CCC6CC(CC4C6)C5)o3)cs2)cc1 | MTT | >110 µM |
| C=C(c1ccc(C)cc1)c1c(C(C)C)c(=O)[nH]c(=O)n1COCc1ccccc1 | MTT | 35.48 µM |
| CN1CCn2c(nc(C(=O)NCc3ccc(F)cc3)c(O)c2=O)C(N(C)C(=O)C(=O)N(C)C)C1 | microscopy | >1 µM |
| Nc1nc2c(ncn2[C@H]2CS[C@@H](CO)O2)c(=O)[nH]1 | - | 100 µg/mL |
| N#Cc1c(SCCCSc2nsc(-c3ccccc3)c2C#N)nsc1-c1ccccc1 | MTT | >125 µg/mL |
| Cc1nc2c(c(-c3ccc4c(c3)CCCO4)c1C(OC(C)(C)C)C(=O)O)CCCC2 | ATP | >50 µM |
| CC(C)(C)NC(=O)[C@@H]1CN(Cc2cccnc2)CCN1C[C@H](C[C@@H](Cc1ccccc1)C(=O)N[C@H]1c2ccccc2C[C@H]1O)OC(=O)COc1ccc(C[C@H](N)C(=O)O)cc1 | MTT | >100 µM |
| Nc1nc(=O)n([C@@H]2CO[C@@H](CO)S2)cc1F | - | >100 µg/mL |
| CC(=O)Nc1ccc(C(=O)Nc2ccc(-c3nc4ccc(NC(=O)c5ccc(NC(C)=O)cc5)cc4[nH]3)cc2)cc1 | propidium iodide | >10 µM |
| Cc1c(C(C)(O)c2ccccc2F)n(COCc2ccccc2)c(=O)[nH]c1=O | MTT | 185 µM |
| [C-]#[N+]C[C@H]1O[C@@H](n2cc(C)c(=O)[nH]c2=O)C[C@@H]1O | - | >200 µM |
| O=S(=O)(O)c1cc(O)c2c(NS(=O)(=O)c3ccc(-c4ccc(S(=O)(=O)Nc5cc(S(=O)(=O)O)cc6cc(S(=O)(=O)O)cc(O)c56)cc4)cc3)cc(S(=O)(=O)O)cc2c1 | - | 310 µg/mL |
| Nc1ncnc2c1ncn2[C@@H]1CO[C@H](CO)S1 | - | >100 µg/mL |
| N#Cc1c(SCCCCSc2nsc(-c3ccccc3)c2C#N)nsc1-c1ccccc1 | MTT | >125 µg/mL |
| Cc1cn([C@@H]2O[C@H](CO)[C@@H](C#N)[C@@H]2O)c(=O)[nH]c1=O | - | >500 µM |
| O=C(O)c1ccccc1/C=C/c1cc(F)cc(/C=C/C2C=CC=CC2)c1 | propidium iodide | 63 µM |
| Cc1ccc(-c2nc(-c3nnc(C45CCC6CC(CC4C6)C5)o3)cs2)cc1 | MTT | 105.7 µM |
| O=c1ccn([C@H]2CO[C@@H](CO)S2)c(=O)[nH]1 | - | >100 µg/mL |
| CCN1CCn2c(nc(C(=O)NCc3ccc(F)cc3)c(O)c2=O)C(N(C)C(=O)C(=O)N(C)C)C1 | microscopy | >1 µM |
| N#Cc1c(SSc2nsc(-c3ccccc3)c2C#N)nsc1-c1ccccc1 | MTT | 52.3 µg/mL |
| CCC(C)C(NC(=O)C(N)CO)C(=O)NC(C)C(=O)NC(CCC(=O)O)C(=O)NN[C@@]12NC(=O)[C@@]3(O)C4C5C(C41)[C@@H]1C[C@H]5C3C12 | - | 0.078 µM |
| [C-]#[N+]C[C@H]1O[C@@H](n2ccc(=O)[nH]c2=O)C[C@@H]1N=[N+]=[N-] | - | >40 µM |
| Cc1c(C(C)(O)c2ccccc2Cl)n(COCc2ccccc2)c(=O)[nH]c1=O | MTT | 154 µM |
| CC(C)CNC1CN(C)CCn2c1nc(C(=O)NCc1ccc(F)cc1)c(O)c2=O | microscopy | >10 µM |
| CC(C)C(N)C(=O)O[C@H](CN1C[C@H]2CCCC[C@H]2C[C@H]1C(=O)NC(C)(C)C)[C@H](Cc1ccccc1)NC(=O)[C@H](CC(N)=O)NC(=O)c1ccc2ccccc2n1 | MTT | >100 µM |
| Cc1noc(CN2CCn3c(nc(C(=O)NCc4ccc(F)cc4)c(O)c3=O)C2(C)C)n1 | microscopy | >1 µM |
| CC(C)c1nc(CN(C)C(=O)N[C@H](C(=O)N[C@@H](Cc2ccccc2)C[C@H](O)[C@H](Cc2ccccc2)NC(=O)OCc2cncs2)C(C)C)cs1 | MTT | >10 µg/mL |
| Cc1coc(CN2CCn3c(nc(C(=O)NCc4ccc(F)cc4)c(O)c3=O)C2(C)C)n1 | microscopy | >1 µM |
| NC[C@@H]1O[C@H](O[C@H]2[C@@H](O)[C@H](O[C@@H]3[C@@H](O)[C@H](N)C[C@H](N)[C@H]3O[C@H]3O[C@H](CN)[C@@H](O)[C@H](O)[C@H]3N)O[C@@H]2CO)[C@H](N)[C@@H](O)[C@@H]1O | propidium iodide | >2000 µM |
| CCCCCCCC/C=C\CCCCCCCC(=O)OCC(COC(=O)CCCCCCC/C=C\CCCCCCCC)OC(=O)CCC(=O)O[C@@H](C[C@@H](Cc1ccccc1)C(=O)N[C@H]1c2ccccc2C[C@H]1OC(=O)CCC(=O)OC(COC(=O)CCCCCCC/C=C\CCCCCCCC)COC(=O)CCCCCCC/C=C\CCCCCCCC)CN1CCN(Cc2cccnc2)C[C@H]1C(=O)NC(C)(C)C | MTT | >100 µM |
| COc1ccc(C(O)(c2c(C)c(=O)[nH]c(=O)n2COCc2ccccc2)C(C)C)cc1 | MTT | 90.18 µM |
| Cc1nc2c(c(-c3ccccc3)c1C(OC(C)(C)C)C(=O)O)CCCC2 | ATP | >50 µM |
| CC(C)(C)NC(=O)[C@@H]1CN(Cc2cccnc2)CCN1C[C@H](C[C@@H](Cc1ccccc1)C(=O)N[C@H]1c2ccccc2C[C@H]1O)OC(=O)NCCCCOc1ccc(C[C@H](N)C(=O)O)cc1 | MTT | >100 µM |
| Cc1cn([C@H]2C[C@H](N=[N+]=[N-])[C@@H](CO)O2)c(=O)[nH]c1=O | MTT | 9.82 µg/mL |
| CCC(C)C(NC(=O)C(N)CO)C(=O)NC(C)C(=O)N[C@@]12NC(=O)[C@@]3(O)C4C5C(C41)[C@@H]1C[C@H]5C3C12 | - | 10 µM |
| Cc1c(C(C)c2cccc3ccccc23)n(COCc2ccccc2)c(=O)[nH]c1=O | MTT | >294 µM |
| CC(C)(C)NC(=O)[C@@H]1CN(Cc2cccnc2)CCN1C[C@H](C[C@@H](Cc1ccccc1)C(=O)N[C@H]1c2ccccc2C[C@H]1OC(=O)CCCCOc1ccc(C[C@H](NC(=O)OC(C)(C)C)C(=O)O)cc1)OC(=O)CCCCOc1ccc(C[C@H](NC(=O)OC(C)(C)C)C(=O)O)cc1 | MTT | >100 µM |
| Cc1ccccc1C(C)(O)c1c(C)c(=O)[nH]c(=O)n1COCc1ccccc1 | MTT | 175 µM |
| Brc1cccc(-c2nc(-c3nnc(C45CCC6CC(CC4C6)C5)o3)cs2)c1 | MTT | >125 µM |
| Cc1c(O)cccc1C(=O)N[C@@H](CSc1ccccc1)[C@@H](CN1C[C@H]2CCCC[C@H]2C[C@H]1C(=O)NC(C)(C)C)OC(=O)NCCCCOc1ccc(C[C@H](N)C(=O)O)cc1 | MTT | >100 µM |

For reference, 6 entries again:

smiles | method | value
CC(C)(C)OC(C(=O)O)c1c(-c2ccc3c(c2)CCCO3)ccc2ncccc12 | ATP | >50 µM
C=C(c1ccc(C)cc1)c1c(C(C)C)c(=O)[nH]c(=O)n1COCc1ccccc1 | MTT | 35.48 µM
CC1=C[C@@H](OCP(=O)(O)O)C[C@H]1n1cnc2c(N)ncnc21 | XTT | 90 µM
O=c1ccn([C@H]2CO[C@@H](CO)S2)c(=O)[nH]1 | - | >100 µg/mL
COc1ccc(C(O)(c2c(C)c(=O)[nH]c(=O)n2COCc2ccccc2)C(C)C)cc1 | MTT | 90.18 µM
Cc1nc2c(c(-c3ccccc3)c1C(OC(C)(C)C)C(=O)O)CCCC2 | ATP | >50 µM

CCn is the concentration with n% toxicity to the cells. Rows are shuffled and stem from different studies.